Test system: P. falciparum late stage (stages IV-V) gametocytes
Assay: P. falciparum late stage gametocyte ATP depletion assay (Pf GC-ATP)
[1] = unified cytotox / Pf GC-ATP IC50, red: <10-fold selectivity, green: >10-fold
[2] = unified cytotox / Pf GC-ATP IC50, <10-fold selectivity red, >10-fold green
[3] = unified cytotox / IC50, <10-fold red, >10-fold green

| Structure (SMILES) | Assay tox ratio Pf GC-ATP [1] | further results |
| --- | --- | --- |
| CCN(CC)CCOc1ccc(C(O)(C#CC(O)(c2ccc(C)cc2)c2ccc(OCCN(CC)CC)cc2)c2ccc(C)cc2)cc1 (stereo not drawn) [TCMDC-137198] | 11.57 |  |
| Cl.N=c1n(Cc2ccc(Cl)cc2)c2ccccc2n1CC(O)c1ccc(Cl)c(Cl)c1 (stereo not drawn) [TCMDC-123813] |  | Assay tox ratio Pf GC-ATP [2]: 18.22 |
| COc1cccc(CCc2c(CCNCCCCCCNCCc3ccccc3)ccc(OC)c2OC)c1.Cl [TCMDC-132105] | 43.58 |  |
| CN1CCC(N(Cc2ccc(-c3ccc(Cl)cc3)cc2)C(=O)Cn2c(CCc3cccc(F)c3F)cc(=O)c3ccccc32)CC1.O=C(O)C(O)C(O)C(=O)O [TCMDC-141357] | 1.96 |  |
| Cc1ccc2nc(C)cc(N/N=C/c3ccc([N+](=O)[O-])cc3)c2c1 [TCMDC-142070] | 0.02 |  |
| Cl.N=C(NCCCc1ccccc1)c1cccc(C(=N)NCCCc2ccccc2)n1 [TCMDC-137453] | 40.85 |  |
| Cc1cc(F)ccc1-c1nc(NCC(O)CNCCc2ccccc2)nc2c1ccc(=O)n2-c1c(F)cccc1F.O=C(O)C(F)(F)F (stereo not drawn) [TCMDC-141784] |  | Assay tox ratio Pf GC-ATP [3]: 50.57 |
| CCCCN(CCCC)CCCCNc1c2ccccc2nc2ccccc12.Cl [TCMDC-137461] | 34.55 |  |
| O=C(O)C(F)(F)F.O=S(=O)(NCCN1CCCC1)c1cccc(-c2ccc(CNCc3ccc(F)cc3)cc2)c1 [TCMDC-132289] | 2.75 |  |
| COCCn1c(-c2cccc(Cl)c2)nn(-c2ccc([N+](=O)[O-])cc2C#N)c1=S [TCMDC-134719] |  | Assay tox ratio Pf GC-ATP [3]: 36.01 |
| COc1cccc(CCNCCCCCCNCCc2ccc(Cl)cc2)c1.Cl [TCMDC-131284] | 11.51 |  |
| CN1CCN(CCCN(Cc2cccc(-c3cccc(CNC4CCCC4)c3)c2)C(=O)CCC2CCCC2)CC1.O=C(O)C(F)(F)F [TCMDC-140555] | 9.30 |  |
| CS(=O)(=O)c1cccc(-c2cnc3[nH]cc(-c4cccc(CCN)c4)c3c2)c1 [TCMDC-136307] | 53.19 |  |
| O=C(Nc1cccc(Oc2ccccc2)c1)N[C@H]1CCN(Cc2ccc(OCCCN3CCCCC3)cc2)C1 [TCMDC-141785] | 3.12 |  |
| Fc1ccc2[nH]c(-c3ccc(-c4ccc(CN5CCC(CCN6CCCCC6)CC5)cc4)s3)nc2c1.O=C(O)C(F)(F)F [TCMDC-133932] | 27.14 |  |
| CCN(CC)CCOc1ccc(C(O)(C#CC(O)(c2ccccc2)c2ccc(OCCN(CC)CC)cc2)c2ccccc2)cc1 (stereo not drawn) [TCMDC-137197] | 5.34 |  |
| CCCCCCC(N)c1ccc(OCCCOc2ccc(C(N)CCCCCC)cc2)cc1.Cl (stereo not drawn) [TCMDC-137621] | 35.62 |  |
| CCCCCCNC(=N)c1ccc(OCCCCCOc2ccc(C(=N)NCCCCCC)cc2)cc1.Cl [TCMDC-137619] | 17.42 |  |
| CS(=O)(=O)CCNCc1nc(-c2ccc3c(=O)[nH]cnc3c2)cs1 [TCMDC-138539] | 1.57 |  |
| CCc1nn2c(Nc3ccncc3)cc(C)nc2c1-c1ccccc1 [TCMDC-124917] | 13.13 |  |
| Cc1cc(NCCc2ccccc2)nc(NC(=N)Nc2ccccc2Cl)n1 [TCMDC-138370] | 2.79 |  |

| Structure (SMILES) | Assay tox ratio Pf GC-ATP [1] | further results |
| --- | --- | --- |
| O=C(CC1CCCC1)N(Cc1ccc(-c2ccc(CNC3Cc4ccccc4C3)cc2)cc1)CC1CCCCN1.O=C(O)C(F)(F)F (stereo not drawn) [TCMDC-141446] | 6.45 |  |
| Br.c1cc(C2=NC3CCCCC3N2)ccc1OCCCCCOc1ccc(C2=NC3CCCCC3N2)cc1 (stereo not drawn) [TCMDC-137802] | 13.36 |  |
| COc1cccc(Nc2c(C(N)=O)cnc3ccc(-c4ccc([S+](C)[O-])cc4)cc23)c1.O=C(O)C(F)(F)F (stereo not drawn) [TCMDC-135184] | 17.54 |  |
| CC(C)CCNCc1ccc(OCc2cccc(COc3ccc(CNCCC(C)C)cc3I)c2)c(I)c1.Cl [TCMDC-137274] | 14.32 |  |
| COc1ccccc1CCNc1nc(C)cc(N[C@@H](Cc2ccccc2)C(=O)NCc2cccc(F)c2)n1.O=C(O)C(F)(F)F [TCMDC-134893] | 1.19 |  |
| Cl.c1ccc(CN2CCN(CCCCNc3c4ccccc4nc4ccccc34)CC2)cc1 [TCMDC-138009] | 12.48 |  |
| CCN(CC)Cc1cc(Nc2c3ccc(Cl)cc3nc3cccc(OC)c23)ccc1O.Cl [TCMDC-139222] | 25.13 |  |
| Cn1nc(C(F)(F)F)c(-c2ccc(Br)cc2)c1NC(=O)Cc1ccccc1F [TCMDC-123792] |  | Assay tox ratio Pf GC-ATP [3]: 55.97 |
| CCN(CC)CCOc1ccc(C(O)(C#CC(O)(c2ccc(OCCN(CC)CC)cc2)c2ccc([N+](=O)[O-])cc2)c2ccc([N+](=O)[O-])cc2)cc1 (stereo not drawn) [TCMDC-137201] | 27.64 |  |
| Cc1cccnc1Nc1nc(-c2ccccn2)cs1 [TCMDC-125846] | 30.20 |  |
| COc1cc(NC(=O)c2sc(-c3ccc(Cl)cc3)cc2NC(=O)c2ccncc2)ccc1OCCN1CCCC1 [TCMDC-135398] | 21.53 |  |
| Cc1ccc(C)c(NC(=O)CC2C(=O)N(c3ccccc3)C(=S)N2Cc2ccco2)c1 (stereo not drawn) [TCMDC-124000] |  | Assay tox ratio Pf GC-ATP [2]: 19.23 |
| CC(C)CCNC(=N)Nc1ccc(OCCCOc2ccc(NC(=N)NCCC(C)C)cc2)cc1 [TCMDC-137615] | 86.21 |  |
| CCOc1c(CCNCCCCNCCc2ccc3ccccc3c2OCC)ccc2ccccc12.CS(=O)(=O)O [TCMDC-137759] | 144.23 |  |
| CS(=O)(=O)O.FC(F)(F)COc1c(CCNCCCCNCCc2ccc3ccccc3c2OCC(F)(F)F)ccc2ccccc12 [TCMDC-137169] | 28.00 |  |
| COC(=O)c1sc(-c2ccc(Cl)cc2)cc1N(CCCN1CCC(N2CCCCC2)CC1)S(=O)(=O)c1ccc(C)cc1 [TCMDC-135561] | 1.30 |  |
| COc1ccc2c(c1CNCCCCCCNCc1c(OC)ccc3c1CCCC3)CCCC2 [TCMDC-137817] | 9.12 |  |
| CCCCCOc1ccc(C(O)C(CCC(CN2CCCCCC2)C(O)c2ccc(OCCCCC)cc2)CN2CCCCCC2)cc1.Cl (stereo not drawn) [TCMDC-124174] |  | Assay tox ratio Pf GC-ATP [2]: 5.67 |
| CN(C)CCN(Cc1ccccc1-c1ccc(CNCCc2ccccc2)cc1)C(=O)NC1CCCCC1.O=C(O)C(F)(F)F [TCMDC-140626] | 18.29 |  |
| CCCCCOc1ccc(C(=NC)N(CCCCC)CCCCC)c2ccccc12.I [TCMDC-137703] | 7.12 |  |
| COc1cc(NC(=O)c2sc(-c3ccc(Cl)cc3)cc2NC(=O)c2cccnc2)ccc1OCCN1CCCC1 [TCMDC-135397] | 40.76 |  |

| Structure (SMILES) | Assay tox ratio Pf GC-ATP [1] | further results |
| --- | --- | --- |
| SC(=Nc1ccc2c(c1)OCCO2)NN=Cc1ccccn1 [TCMDC-132009] | 3.95 |  |
| CCN(CC)/C(=N/C(=N)Nc1ccc(Cl)cc1)NCCCCCCCCN/C(=N\C(=N)Nc1ccc(Cl)cc1)N(CC)CC [TCMDC-131812] | 24.27 |  |
| CN(C)CCCn1c(N)c(-c2nc3ccccc3[nH]2)c2nc(C#N)c(C#N)nc21 [TCMDC-123729] | 34.65 |  |
| COc1ccc(CCNC(C)Cc2ccc(C(=O)Nc3ccc(CC(C)NCCc4cccc(Cl)c4)cc3)cc2)cc1 (stereo not drawn) [TCMDC-139750] | 3.87 |  |
| O=C(Nc1nc(-c2ccccn2)cc2ccccc12)c1cccc(Cl)c1 [TCMDC-123886] |  | Assay tox ratio Pf GC-ATP [2]: 50.34 |
| CCCCCCCn1c(=N)n(CC(O)c2ccc(Cl)c(Cl)c2)c2ccccc21.Cl (stereo not drawn) [TCMDC-124065] |  | Assay tox ratio Pf GC-ATP [2]: 2.97 |
| CCNC1=NC2=C(CC(C(C)(C)C)CC2)C2(CCC(C(C)(C)C)CC2)S1.Cl (stereo not drawn) [TCMDC-131288] | 4.77 |  |
| Cc1cc(Nc2ccncc2)n2nc(C)c(-c3ccc(Cl)cc3)c2n1 [TCMDC-124478] |  | Assay tox ratio Pf GC-ATP [2]: 54.79 |
| Cc1ccc(C)c(CC(=O)N2CCC(n3c(C)nc4ccc(F)cc43)CC2)c1 [TCMDC-124790] |  | Assay tox ratio Pf GC-ATP [3]: 62.32 |
| CN1CCN(CCCCNc2c3ccccc3nc3ccccc23)CC1 [TCMDC-137479] | 2.57 |  |
| Cc1ccc(-n2nc(-c3ccccc3)c3cc(C(=O)NCCN)sc32)cc1 [TCMDC-124776] |  | Assay tox ratio Pf GC-ATP [2]: 7.05 |
| CCN(CC)CCCNc1nccc(N2CCc3ncnc(Nc4ccc(OCc5cccc(F)c5)c(Cl)c4)c3C2)n1 [TCMDC-135406] | 7.80 |  |
| Cl.O=C(/C=C/c1ccc(Cl)c(Cl)c1)N1CCC(CCN2CCC(c3c[nH]c4cnccc34)CC2)CC1 [TCMDC-140136] | 36.05 |  |
| COc1cccc(CC(=O)N2CCC(n3c(C)nc4ccc(C)cc43)CC2)c1 [TCMDC-124791] |  | Assay tox ratio Pf GC-ATP [3]: 212.77 |
| CCc1c(CCNCCCCCCNCCc2ccc(Br)cc2)ccc(OC)c1OC.Cl [TCMDC-132045] | 14.88 |  |
| Cc1nc(-c2cccc(Nc3ccnc4cc(-c5nccs5)ccc34)c2)no1.Cl [TCMDC-138334] | 25.40 |  |
| Nc1c2ccccc2nc2ccc(-c3ccccc3)cc12 [TCMDC-132030] | 6.80 |  |
| O=C(Nc1ccc2c(c1)CCCN2S(=O)(=O)c1cccs1)c1cc([N+](=O)[O-])ccc1Cl [TCMDC-125153] | 9.39 |  |
| O=C(Nc1ccc(Oc2ccccc2)cc1)N(CCN1CCCC1)Cc1ccc(-c2ccc(CN3CCNCC3)cc2)cc1.O=C(O)C(F)(F)F [TCMDC-139652] | 6.98 |  |
| CC(C)CNCc1cccc(-c2cccc(CN(CCN(C)C)C(=O)Nc3ccccc3)c2)c1.O=C(O)C(F)(F)F [TCMDC-140592] | 23.91 |  |
| CC(C)CNCc1cccc(-c2cccc(CN(CCCN3CCN(C)CC3)C(=O)NC3CCCCC3)c2)c1.O=C(O)C(F)(F)F [TCMDC-140633] | 9.43 |  |

Reference: article PMC6753678, “Fueling Open Innovation for Malaria Transmission-Blocking Drugs: Hundreds of Molecules Targeting Early Parasite Mosquito Stages” (Frontiers in Microbiology, 2019)
